In general, inhibition refers to how much of the control response was suppressed.

Experiment [1] deals with Replicase polyprotein 1ab (Severe acute respiratory syndrome coronavirus 2) (UniProt P0DTD1). Conditions: dose 1.0 µM, time 65.0 min.
The target is the same in experiment [2]. Conditions: time 65.0 min.

`CN(C(=O)[C@H](Cc1ccccc1)NC(=O)OCc1ccccc1)N(C#N)Cc1ccccc1Cl`: the inhibition in experiment [1] came out at 100%. In experiment [2], this compound yielded a K of 22200 M⁻¹ s⁻¹. For `CN(C(=O)[C@H](Cc1ccccc1)NC(=O)C1(NC(=O)c2cccs2)CC1)N(C#N)Cc1ccc(Cl)cc1` the same measures were 72% and 6040 M⁻¹ s⁻¹. For `COc1ccc(OCC(=O)N[C@@H](Cc2ccccc2)C(=O)N(C)N(C#N)Cc2ccc(Cl)cc2)cc1` the same measures were 50% and 2760 M⁻¹ s⁻¹. On the same counts, the results for `CN(C(=O)[C@H](Cc1ccccc1)NC(=O)OCc1ccccc1)N(C#N)Cc1ccccc1Br` are 100% and 13000 M⁻¹ s⁻¹. On to `CN(C(=O)[C@H](Cc1ccccc1)NC(=O)c1cc2cc(Cl)ccc2[nH]1)N(C#N)Cc1ccc(Cl)cc1`, for which, in experiment [1], the inhibition was determined as 100%. Also, the K in experiment [2] came to 35900 M⁻¹ s⁻¹. As to `CN1C(=O)[C@H](CCc2ccccc2)NC(=O)COCCOc2ccc(F)cc2CN1C#N`, the inhibition in experiment [1] worked out at 33%. This compound also gave a K in experiment [2] of 3180 M⁻¹ s⁻¹. For `COc1ccc(NCC(=O)N[C@@H](Cc2ccccc2)C(=O)N(C)N(C#N)Cc2ccc(Cl)cc2)c(Cl)c1` the same measures were 74% and 5450 M⁻¹ s⁻¹.

`CN(C(=O)[C@H](Cc1ccccc1)NC(=O)OCc1ccccc1)N(C#N)Cc1ccc(Br)c(F)c1`: in experiment [1], the inhibition was found to be 100%. For the same compound, the K in experiment [2] stood at 14000 M⁻¹ s⁻¹. On to `CN(C(=O)[C@H](Cc1ccccc1)NC(=O)COc1ccc(F)cc1)N(C#N)Cc1ccc(Cl)cc1`, for which the inhibition in experiment [1] turned out to be 47%. The compound also yielded a K in experiment [2] of 4740 M⁻¹ s⁻¹. `CN(C(=O)[C@H](Cc1ccccc1)NC(=O)COc1ccc(Cl)cc1Cl)N(C#N)Cc1ccc(Cl)cc1` came in with an inhibition in experiment [1] of 35%. The compound also yielded a K in experiment [2] of 3360 M⁻¹ s⁻¹. On to `CN1C(=O)[C@H](CCc2ccccc2)NC(=O)COCCOCCOc2ccc(F)cc2CN1C#N`, for which the inhibition in experiment [1] was 14%. The same measure, in the same setting: the same measure for `CN1C(=O)[C@H](Cc2ccccc2)N(C(=O)[C@@H](NC(=O)c2cccs2)C(C)(C)C)CCCOc2ccc(Cl)c(F)c2CN1C#N`: 7%.

In the case of `CN(C(=O)[C@H](Cc1ccccc1)NC(=O)OCc1ccccc1)N(C#N)Cc1ccc(Br)c(Cl)c1`, the inhibition in experiment [1] amounted to 96%. Besides, the K in experiment [2] was found to be 15500 M⁻¹ s⁻¹. `CN(C(=O)[C@H](Cc1ccccc1)NC(=O)COc1cccc(F)c1Br)N(C#N)Cc1ccc(Cl)cc1`: the inhibition in experiment [1] came out at 39%. Also, the K in experiment [2] is 3320 M⁻¹ s⁻¹. On the same counts, the results for `COc1ccc(Cl)c(F)c1CN(C#N)N(C)C(=O)[C@H](Cc1ccccc1)NC(=O)OCc1ccccc1` are 84% and 10300 M⁻¹ s⁻¹.

Compound `CN(C(=O)[C@H](Cc1ccccc1)NC(=O)OCc1ccccc1)N(C#N)Cc1ccc(Br)cc1Cl` yielded an inhibition in experiment [1] of 100%. This compound also displayed a K in experiment [2] of 20000 M⁻¹ s⁻¹. For `CN(C(=O)[C@H](Cc1ccccc1)NC(=O)OCc1ccccc1)N(C#N)Cc1cccc(Br)c1` the same measures were 100% and 43600 M⁻¹ s⁻¹. On the same counts, the results for `CN(C(=O)[C@H](Cc1ccccc1)NC(=O)CNc1ccc(F)cc1F)N(C#N)Cc1ccc(Cl)cc1` are 59% and 4890 M⁻¹ s⁻¹.

As for `CN(C(=O)[C@H](Cc1ccccc1)NC(=O)[C@@H](NC(=O)c1ccc(-c2cccs2)s1)C(C)(C)C)N(C#N)Cc1ccc(Cl)cc1`, the inhibition in experiment [1] is 58%. The same compound yielded a K in experiment [2] of 8150 M⁻¹ s⁻¹. For `CN1C(=O)[C@H](Cc2ccccc2)N(C(=O)COc2ccc(Cl)cc2Cl)CCCCOc2ccc(F)cc2CN1C#N`, the inhibition in experiment [1] came to 100%.

`CN(C(=O)[C@H](Cc1ccccc1)NC(=O)CNc1c(F)cccc1F)N(C#N)Cc1ccc(Cl)cc1` registered an inhibition in experiment [1] of 71%. In experiment [2], this compound displayed a K of 4670 M⁻¹ s⁻¹. As to `CN(C(=O)[C@H](Cc1ccccc1)NC(=O)OCc1ccccc1)N(C#N)Cc1ccc(F)cc1`, the inhibition in experiment [1] was 100%. For the same compound, the K in experiment [2] was determined as 9320 M⁻¹ s⁻¹.

In turn, `COc1cccc(CN(C#N)N(C)C(=O)[C@H](Cc2ccccc2)NC(=O)OCc2ccccc2)c1F` yielded an inhibition in experiment [1] of 100%. In experiment [2], this compound displayed a K of 23400 M⁻¹ s⁻¹. For `CN(C(=O)[C@H](Cc1ccccc1)NC(=O)CNc1ccc(F)c(F)c1)N(C#N)Cc1ccc(Cl)cc1` the same measures were 86% and 10700 M⁻¹ s⁻¹.

The compound `CN(C(=O)[C@H](Cc1ccccc1)NC(=O)OCc1ccccc1)N(C#N)Cc1ccsc1` showed an inhibition in experiment [1] of 83%. The K in experiment [2] came out at 10100 M⁻¹ s⁻¹. Compound `COc1ccc(CN(C#N)N(C)C(=O)[C@H](Cc2ccccc2)NC(=O)OCc2ccccc2)cc1` came in with an inhibition in experiment [1] of 81%. In experiment [2], this compound yielded a K of 9740 M⁻¹ s⁻¹.

With `CN(C(=O)[C@H](Cc1ccccc1)NC(=O)CCc1ccc(F)c(F)c1)N(C#N)Cc1ccc(Cl)cc1`, the inhibition in experiment [1] stood at 44%. This compound gave a K in experiment [2] of 4040 M⁻¹ s⁻¹.

In the case of `CN(C(=O)[C@H](Cc1ccccc1)NC(=O)OCc1ccccc1)N(C#N)Cc1cc(Cl)ccc1F`, the inhibition in experiment [1] stood at 100%. This compound also registered a K in experiment [2] of 21800 M⁻¹ s⁻¹. For the compound `CN(C(=O)[C@H](Cc1ccccc1)NC(=O)OCc1ccccc1)N(C#N)Cc1c(F)cc(Br)cc1F`, in experiment [1], the inhibition worked out at 100%. This compound came in with a K in experiment [2] of 21800 M⁻¹ s⁻¹.

In experiment [1], `CN(C(=O)[C@H](Cc1ccccc1)NC(=O)OCc1ccccc1)N(C#N)Cc1ccccc1F` yielded an inhibition of 100%. Further, the K in experiment [2] came to 25600 M⁻¹ s⁻¹. For `COc1ccc(OC)c(CN(C#N)N(C)C(=O)[C@H](Cc2ccccc2)NC(=O)OCc2ccccc2)c1` the same measures were 54% and 4870 M⁻¹ s⁻¹.

As to `CCCS(=O)(=O)N[C@H](C(=O)N[C@@H](Cc1ccccc1)C(=O)N(C)N(C#N)Cc1ccc(Cl)cc1)C(C)(C)C`, the inhibition in experiment [1] was 99%. This compound also displayed a K in experiment [2] of 29200 M⁻¹ s⁻¹. In the case of `COc1c(Cl)cccc1CN(C#N)N(C)C(=O)[C@H](Cc1ccccc1)NC(=O)OCc1ccccc1`, the inhibition in experiment [1] came out at 83%. The K in experiment [2] is 10400 M⁻¹ s⁻¹. On the same counts, the results for `COc1cccc(OCC(=O)N[C@@H](Cc2ccccc2)C(=O)N(C)N(C#N)Cc2ccc(Cl)cc2)c1` are 50% and 4290 M⁻¹ s⁻¹. In experiment [1], `CN1C(=O)[C@H](Cc2ccccc2)N(C(=O)COc2ccc(Cl)cc2Cl)CCCCCOc2ccc(F)cc2CN1C#N` yielded an inhibition of 100%. In experiment [1], `CN(C(=O)[C@H](Cc1ccccc1)NC(=O)OCc1ccccc1)N(C#N)Cc1cccc(F)c1` showed an inhibition of 100%. The compound also had a K in experiment [2] of 25900 M⁻¹ s⁻¹. Take `CN(C(=O)[C@H](Cc1ccccc1)NC(=O)OCc1ccccc1)N(C#N)Cc1ccc(Br)c(Cl)c1F`: the inhibition in experiment [1] came to 100%. The compound further registered a K in experiment [2] of 22400 M⁻¹ s⁻¹. In experiment [1], `CN(C(=O)[C@H](Cc1ccccc1)NC(=O)OCc1ccccc1)N(C#N)Cc1ccc(Br)cc1F` returned an inhibition of 100%. This compound also gave a K in experiment [2] of 13700 M⁻¹ s⁻¹. On the same counts, the results for `CN(C(=O)[C@H](Cc1ccccc1)NC(=O)OCc1ccccc1)N(C#N)Cc1ccco1` are 96% and 14300 M⁻¹ s⁻¹.

(Values after ChEMBL document CHEMBL5512668, “Macrocyclic Azapeptide Nitriles: Structure-Based Discovery of Potent SARS-CoV-2 Main Protease Inhibitors as Antiviral Drugs” (J Med Chem, 2024).)
